Results on one compound are retold here after ChEMBL document CHEMBL3098104, “Design, synthesis and preliminary SAR studies of novel N-arylmethyl substituted piperidine-linked aniline derivatives as potent HIV-1 NNRTIs” (Bioorg Med Chem, 2014).

The target of the assay is Human immunodeficiency virus type 1 reverse transcriptase (Human immunodeficiency virus 1, UniProt Q72547). The assay can be described thus: Inhibition of wild-type HIV1 reverse transcriptase assessed as incorporation of biotin-labeled dUTP. The essentials: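 HIV-1 RT enzyme assay with poly(A)·oligo(dT)15 as template-primer. Incorporation of digoxigenin- and biotin-labeled dUTP into DNA was read colorimetrically with the peroxidase substrate ABTS.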

As to `Cc1cc(C#N)cc(C)c1Oc1nc(Nc2ccc(C#N)cc2)nc(N)c1Br` [ETRAVIRINE], the IC50 was 71 nM.

In general, IC50 refers to the concentration that inhibits the measured activity by half.
